tested on: CD8+ T cells; type: cell-based, human; conditions: cells of the TCR clonotype specific for the epitope / HLA class I of the same line

Row | Molecule | No. of Cells
1 | TCR_42: TCR to … / B*07:02 (protein) TCR alpha: RKEVEQDPGPFNVPEGATVAFNCTYSNSASQSFFWYRQDCRKEPKLLMSVYSSGNEDGRFTAQLNRASQYISLLIRDSKLSDSATYLCVVNKDNDMRFGAGTRLTVKPNIQNPDPAVYQLRDSKSSDKSVCLFTDFDSQTNVSQSKDSDVYITDKTVLDMRSMDFKSNSAVAWSNKSDFACANAFNNSIIPEDTFFPSPESSCDVKLVEKSFETDTNLNFQNLSVIGFRILLLKVAGFNLLMTLRLWSS TCR beta: NAGVTQTPKFRVLKTGQSMTLLCAQDMNHEYMYWYRQDPGMGLRLIHYSVGEGTTAKGEVPDGYNVSRLKKQNFLLGLESAAPSQTSVYFCASQDINTGELFFGEGSRLTVLEDLKNVFPPKVAVFEPSEAEISHTQKATLVCLATGFYPDHVELSWWVNGKEVHSGVSTDPQPLKEQPALNDSRYCLSSRLRVSATFWQNPRNHFRCQVQFYGLSENDEWTQDRAKPVTQIVSAEAWGRADCGFTSESYQQGVLSATILYEILLGKATLYAVLVSALVLMAMVKRKDSRG | 3
2 | TCR_43: TCR to … / A*02:01 (protein) TCR alpha: QKEVEQNSGPLSVPEGAIASLNCTYSDRGSQSFFWYRQYSGKSPELIMFIYSNGDKEDGRFTAQLNKASQYVSLLIRDSQPSDSATYLCAAGRDDKIIFGKGTRLHILPNIQNPDPAVYQLRDSKSSDKSVCLFTDFDSQTNVSQSKDSDVYITDKTVLDMRSMDFKSNSAVAWSNKSDFACANAFNNSIIPEDTFFPSPESSCDVKLVEKSFETDTNLNFQNLSVIGFRILLLKVAGFNLLMTLRLWSS TCR beta: NAGVTQTPKFRVLKTGQSMTLLCAQDMNHEYMYWYRQDPGMGLRLIHYSVGEGTTAKGEVPDGYNVSRLKKQNFLLGLESAAPSQTSVYFCASSSMTSGIRYEQYFGPGTRLTVTEDLKNVFPPKVAVFEPSEAEISHTQKATLVCLATGFYPDHVELSWWVNGKEVHSGVSTDPQPLKEQPALNDSRYCLSSRLRVSATFWQNPRNHFRCQVQFYGLSENDEWTQDRAKPVTQIVSAEAWGRADCGFTSESYQQGVLSATILYEILLGKATLYAVLVSALVLMAMVKRKDSRG | 3
3 | TCR_44: TCR to … / A*24:02 (protein) TCR alpha: AQKVTQAQTEISVVEKEDVTLDCVYETRDTTYYLFWYKQPPSGELVFLIRRNSFDEQNEISGRYSWNFQKSTSSFNFTITASQVVDSAVYFCALSVRIQGAQKLVFGQGTRLTINPNIQNPDPAVYQLRDSKSSDKSVCLFTDFDSQTNVSQSKDSDVYITDKTVLDMRSMDFKSNSAVAWSNKSDFACANAFNNSIIPEDTFFPSPESSCDVKLVEKSFETDTNLNFQNLSVIGFRILLLKVAGFNLLMTLRLWSS TCR beta: AAGVIQSPRHLIKEKRETATLKCYPIPRHDTVYWYQQGPGQDPQFLISFYEKMQSDKGSIPDRFSAQQFSDYHSELNMSSLELGDSALYFCASSLYEDRANWEQYFGPGTRLTVTEDLKNVFPPKVAVFEPSEAEISHTQKATLVCLATGFYPDHVELSWWVNGKEVHSGVSTDPQPLKEQPALNDSRYCLSSRLRVSATFWQNPRNHFRCQVQFYGLSENDEWTQDRAKPVTQIVSAEAWGRADCGFTSESYQQGVLSATILYEILLGKATLYAVLVSALVLMAMVKRKDSRG | 3
4 | TCR_47: TCR to … / A*02:01 (protein) TCR alpha: RKEVEQDPGPFNVPEGATVAFNCTYSNSASQSFFWYRQDCRKEPKLLMSVYSSGNEDGRFTAQLNRASQYISLLIRDSKLSDSATYLCVVNSGNTPLVFGKGTRLSVIANIQNPDPAVYQLRDSKSSDKSVCLFTDFDSQTNVSQSKDSDVYITDKTVLDMRSMDFKSNSAVAWSNKSDFACANAFNNSIIPEDTFFPSPESSCDVKLVEKSFETDTNLNFQNLSVIGFRILLLKVAGFNLLMTLRLWSS TCR beta: NAGVTQTPKFQVLKTGQSMTLQCAQDMNHNSMYWYRQDPGMGLRLIYYSASEGTTDKGEVPNGYNVSRLNKREFSLRLESAAPSQTSVYFCASSYLYRVAGELFFGEGSRLTVLEDLKNVFPPKVAVFEPSEAEISHTQKATLVCLATGFYPDHVELSWWVNGKEVHSGVSTDPQPLKEQPALNDSRYCLSSRLRVSATFWQNPRNHFRCQVQFYGLSENDEWTQDRAKPVTQIVSAEAWGRADCGFTSESYQQGVLSATILYEILLGKATLYAVLVSALVLMAMVKRKDSRG | 3
5 | TCR_48: TCR to … / A*24:02 (protein) TCR alpha: SLAKTTQPISMDSYEGQEVNITCSHNNIATNDYITWYQQFPSQGPRFIIQGYKTKVTNEVASLFIPADRKSSTLSLPRVSLSDTAVYYCLVGGWVSGGSYIPTFGRGTSLIVHPYIQNPDPAVYQLRDSKSSDKSVCLFTDFDSQTNVSQSKDSDVYITDKTVLDMRSMDFKSNSAVAWSNKSDFACANAFNNSIIPEDTFFPSPESSCDVKLVEKSFETDTNLNFQNLSVIGFRILLLKVAGFNLLMTLRLWSS TCR beta: EPEVTQTPSHQVTQMGQEVILRCVPISNHLYFYWYRQILGQKVEFLVSFYNNEISEKSEIFDDQFSVERPDGSNFTLKIRSTKLEDSAMYFCASKTGGAAKNIQYFGAGTRLSVLEDLKNVFPPKVAVFEPSEAEISHTQKATLVCLATGFYPDHVELSWWVNGKEVHSGVSTDPQPLKEQPALNDSRYCLSSRLRVSATFWQNPRNHFRCQVQFYGLSENDEWTQDRAKPVTQIVSAEAWGRADCGFTSESYQQGVLSATILYEILLGKATLYAVLVSALVLMAMVKRKDSRG | 3
